Anti-infective test results gathered from many reports (values: NIAID ChemDB through PubChem).

Common to all: whole-cell or culture tests; agent: HIV-1; method: cytopathic effect; read-out: EC50

An empty or dashed field is not shown.

structure,strain,cells,changes,value
CNC(=O)[C@H](CCSC)NC(=O)[C@H](OCc1ccccc1)[C@H](O)[C@@H](O)[C@@H](OCc1ccccc1)C(=O)N[C@@H](CCSC)C(=O)NC,-,MT-4,-,>58 µM
CCc1c([Se]c2ccccc2)n(COCc2ccccc2)c(=O)[nH]c1=O,TIBO-RS,MT-2,-,0.28 ± 0.12 µM
CC(C)Nc1cccnc1N1CCN(C(=O)c2cc3cc(NS(C)(=O)=O)ccc3[nH]2)CC1,IIIB,C8166,-,0.012 µg/mL
Cc1cn([C@H]2C[C@H](N=[N+]=[N-])[C@@H](CO)O2)c(=O)[nH]c1=O,LAV-1,CEM(TK-) + CEM TK-,-,>100 µM
CC(C)=CCOc1cc(NC(=S)c2ccsc2C)ccc1Cl,IIIB,CEM,RT-V106A,0.005 µg/mL
O=c1[nH]c(=S)[nH]c2c1C(c1ccc(Cl)cc1)c1c([nH]c(=S)[nH]c1=O)O2,IIIB,MT-4,-,56.8 µM
Cc1cc(C)nc(N2C(=O)CSC2c2c(Cl)cccc2Cl)n1,-,CEM,RT-E138K,0.039 µM
Clc1nc(Cl)c2c(n1)Oc1nc(Cl)nc(Cl)c1C2c1ccccc1,IIIB,MT-4,-,>17.5 µM
CC(C)=CCN1Cc2cccc3[nH]c(=S)n(c23)C[C@@H]1C,Nevirapine-resistant,MT-2,-,0.7 ± 0.1 µM
CC(C)(C)NC(=O)c1ccccc1NC[C@@H](O)[C@H](Cc1ccccc1)NC(=O)[C@H](CC(N)=O)NC(=O)OCc1ccccc1,-,MT-4,-,3.31 µM
O=c1[nH]c2ccc(Cl)cc2n1Cc1c(F)cccc1F,-,CEM,RT-L100I,2 µM
CCOCn1c(Cc2ccccc2)c(C(C)C)c(=O)[nH]c1=O,IIIB,CEM,-,0.003 µg/mL
Nc1nc(=O)n([C@@H]2CS[C@H](CO)O2)cc1F,IIIB,MT-4,-,0.5 µM
Cc1ccnc2c1NC(=O)c1cccnc1N2C1CC1,-,CEM,RT-Y181C,3.04 µM
CCCCCCCSc1nsc(NC(=O)Nc2ccccc2)n1,NL4-3,MT-4,-,14.7 µM
COC(=O)[C@@H](NC(=O)[C@H](OCc1ccccc1)[C@H](O)[C@@H](O)[C@@H](OCc1ccccc1)C(=O)N[C@H](C(=O)OC)C(C)C)C(C)C,-,MT-4,-,>56 µM
CCc1c(Sc2ccccc2)n(COCc2ccccc2)c(=O)[nH]c1=O,IIIB,MT-2,-,0.02 ± 0.006 µM
Cc1occc1C(=S)Nc1ccc(Cl)c(/C=N/OC(C)(C)C)c1,IIIB,CEM,RT-V179D,0.17 µg/mL
Nc1ccn([C@H]2CC[C@@H](CO)O2)c(=O)n1,FO-08.96 (HXB2 RT F77L F116Y Q151M),MT-4,RT-F77L F116Y Q151M,>20 µM
O=C1CSC(c2c(F)cccc2F)N1c1ncccn1,IIIB,MT-4,-,3.65 µM
Cc1cn([C@H]2C[C@H](N=[N+]=[N-])[C@@H](CO)O2)c(=O)[nH]c1=O,IIIB,MT-4,-,0.0122 µM
O=c1[nH]c2c(c(=O)[nH]1)C(c1ccc(I)cc1)c1c([nH]c(=O)[nH]c1=O)O2,L1,MT-4,-,>276 µM
Cc1ccnc2c1NC(=O)c1cccnc1N2C1CC1,IIIB,CEM,RT-E138K,0.12 µg/mL
Cc1cn([C@H]2C[C@H](C#N)[C@@H](CO)O2)c(=O)[nH]c1=O,CBL-1,C8166,-,>100 µg/mL
Cc1cn([C@H]2C=C[C@@H](CO)O2)c(=O)[nH]c1=O,AJ-05.93 (HXB2(RT-L74V)),MT-4,RT-L74V,15.6 µM
CNC(=O)[C@@H](NC(=O)[C@H](OCc1ccc(-c2ccsc2)cc1)[C@H](O)[C@@H](O)[C@@H](OCc1ccc(-c2ccsc2)cc1)C(=O)N[C@H](C(=O)NC)C(C)C)C(C)C,-,MT-4,-,0.04 µM
CC[C@H]1C(=O)Nc2ccc(F)cc2N1C(=O)OC(C)C,J-2 (RT-Y181C),CEM,RT-Y181C,0.009 µg/mL
COc1nc(=O)[nH]c2c1C(c1ccc(Br)cc1)c1c(OC)nc(=O)[nH]c1O2,IIIB,MT-4,-,273 µM
CC(C)Nc1cccnc1N1CCN(C(=O)c2cc3cc(NS(C)(=O)=O)ccc3[nH]2)CC1,IIIB,CEM,-,0.003 µg/mL
Cc1cc(C)nc(N2C(=O)CSC2c2c(F)cccc2Cl)n1,IIIB,MT-4,-,0.038 µM

The last 4 rows once more:

CC[C@H]1C(=O)Nc2ccc(F)cc2N1C(=O)OC(C)C ; strain: J-2 (RT-Y181C) ; cells: CEM ; changes: RT-Y181C ; value: 0.009 µg/mL
COc1nc(=O)[nH]c2c1C(c1ccc(Br)cc1)c1c(OC)nc(=O)[nH]c1O2 ; strain: IIIB ; cells: MT-4 ; value: 273 µM
CC(C)Nc1cccnc1N1CCN(C(=O)c2cc3cc(NS(C)(=O)=O)ccc3[nH]2)CC1 ; strain: IIIB ; cells: CEM ; value: 0.003 µg/mL
Cc1cc(C)nc(N2C(=O)CSC2c2c(F)cccc2Cl)n1 ; strain: IIIB ; cells: MT-4 ; value: 0.038 µM

Lines come from different laboratories, so protocols vary. ECn: concentration that inhibits the pathogen or its effect by n%.